According to ChEMBL document CHEMBL4425127 (J Med Chem, 2016):

Key:
[1] = tested on: Influenza A virus (A/Moscow/10/1999(H3N2)); assay: Binding affinity to recombinant Influenza A virus (A/Moscow/10/99(H3N2)) Neuraminidase N2 expressed in baculovirus infected insect cells assessed as dissociation rate constant measured up to 400 sec by surface plasmon resonance analysis
[2] = tested on: Influenza A virus (A/Moscow/10/1999(H3N2)); assay: Binding affinity to recombinant Influenza A virus (A/Moscow/10/99(H3N2)) Neuraminidase N2 expressed in baculovirus infected insect cells assessed as association rate constant measured up to 400 sec by surface plasmon resonance analysis

| Structure (SMILES) | K [1] | K [2] |
| --- | --- | --- |
| CC(=O)N[C@@H]1[C@H]([C@@H](OC(=O)NCCOCCOCCOCCOCCOCCOCc2cn(CC(Cn3cc(COCCOCCOCCOCCOCCOCCNC(=O)O[C@@H]([C@@H]4OC(C(=O)O)=C[C@H](NC(=N)N)[C@H]4NC(C)=O)[C@H](O)CO)nn3)(Cn3cc(COCCOCCOCCOCCOCCOCCNC(=O)O[C@@H]([C@@H]4OC(C(=O)O)=C[C@H](NC(=N)N)[C@H]4NC(C)=O)[C@H](O)CO)nn3)Cn3cc(COCCOCCOCCOCCOCCOCCNC(=O)O[C@@H]([C@@H]4OC(C(=O)O)=C[C@H](NC(=N)N)[C@H]4NC(C)=O)[C@H](O)CO)nn3)nn2)[C@H](O)CO)OC(C(=O)O)=C[C@@H]1NC(=N)N (stereo partly specified) | 1.3 ×10⁻⁴ /s | 8.36 ×10⁴ /M/s |
| CC(=O)N[C@H]1[C@H]([C@H](OC(=O)NCCOCCOCCOCc2cn(CC(Cn3cc(COCCOCCOCCNC(=O)O[C@@H]([C@@H]4OC(C(=O)O)=C[C@H](NC(=N)N)[C@H]4NC(C)=O)[C@H](O)CO)nn3)(Cn3cc(COCCOCCOCCNC(=O)O[C@@H]([C@@H]4OC(C(=O)O)=C[C@H](NC(=N)N)[C@H]4NC(C)=O)[C@H](O)CO)nn3)Cn3cc(COCCOCCOCCNC(=O)O[C@@H]([C@@H]4OC(C(=O)O)=C[C@H](NC(=N)N)[C@H]4NC(C)=O)[C@H](O)CO)nn3)nn2)[C@H](O)CO)OC(C(=O)O)=C[C@@H]1NC(=N)N (stereo partly specified) | 3.2 ×10⁻⁴ /s | 14.7 ×10⁴ /M/s |
| CC(=O)N[C@H]1[C@H]([C@H](OC(=O)NCCOCCOCCOCCOCCOCCOCCOCCOCCOCCOCCOCCOCc2cn(CC(Cn3cc(COCCOCCOCCOCCOCCOCCOCCOCCOCCOCCOCCOCCNC(=O)O[C@@H]([C@@H]4OC(C(=O)O)=C[C@H](NC(=N)N)[C@H]4NC(C)=O)[C@H](O)CO)nn3)(Cn3cc(COCCOCCOCCOCCOCCOCCOCCOCCOCCOCCOCCOCCNC(=O)O[C@@H]([C@@H]4OC(C(=O)O)=C[C@H](NC(=N)N)[C@H]4NC(C)=O)[C@H](O)CO)nn3)Cn3cc(COCCOCCOCCOCCOCCOCCOCCOCCOCCOCCOCCOCCNC(=O)O[C@@H]([C@@H]4OC(C(=O)O)=C[C@H](NC(=N)N)[C@H]4NC(C)=O)[C@H](O)CO)nn3)nn2)[C@H](O)CO)OC(C(=O)O)=C[C@@H]1NC(=N)N (stereo partly specified) | 4.2 ×10⁻⁷ /s | 9.16 ×10⁴ /M/s |
